Earlier results on one substance are cited in paper PMC3395435 (Biopolymers, 2012).

Sequences of proteins named here, by UniProt entry; tags and fusion partners are left off.
UniProt Q00975, whole entry, looked up: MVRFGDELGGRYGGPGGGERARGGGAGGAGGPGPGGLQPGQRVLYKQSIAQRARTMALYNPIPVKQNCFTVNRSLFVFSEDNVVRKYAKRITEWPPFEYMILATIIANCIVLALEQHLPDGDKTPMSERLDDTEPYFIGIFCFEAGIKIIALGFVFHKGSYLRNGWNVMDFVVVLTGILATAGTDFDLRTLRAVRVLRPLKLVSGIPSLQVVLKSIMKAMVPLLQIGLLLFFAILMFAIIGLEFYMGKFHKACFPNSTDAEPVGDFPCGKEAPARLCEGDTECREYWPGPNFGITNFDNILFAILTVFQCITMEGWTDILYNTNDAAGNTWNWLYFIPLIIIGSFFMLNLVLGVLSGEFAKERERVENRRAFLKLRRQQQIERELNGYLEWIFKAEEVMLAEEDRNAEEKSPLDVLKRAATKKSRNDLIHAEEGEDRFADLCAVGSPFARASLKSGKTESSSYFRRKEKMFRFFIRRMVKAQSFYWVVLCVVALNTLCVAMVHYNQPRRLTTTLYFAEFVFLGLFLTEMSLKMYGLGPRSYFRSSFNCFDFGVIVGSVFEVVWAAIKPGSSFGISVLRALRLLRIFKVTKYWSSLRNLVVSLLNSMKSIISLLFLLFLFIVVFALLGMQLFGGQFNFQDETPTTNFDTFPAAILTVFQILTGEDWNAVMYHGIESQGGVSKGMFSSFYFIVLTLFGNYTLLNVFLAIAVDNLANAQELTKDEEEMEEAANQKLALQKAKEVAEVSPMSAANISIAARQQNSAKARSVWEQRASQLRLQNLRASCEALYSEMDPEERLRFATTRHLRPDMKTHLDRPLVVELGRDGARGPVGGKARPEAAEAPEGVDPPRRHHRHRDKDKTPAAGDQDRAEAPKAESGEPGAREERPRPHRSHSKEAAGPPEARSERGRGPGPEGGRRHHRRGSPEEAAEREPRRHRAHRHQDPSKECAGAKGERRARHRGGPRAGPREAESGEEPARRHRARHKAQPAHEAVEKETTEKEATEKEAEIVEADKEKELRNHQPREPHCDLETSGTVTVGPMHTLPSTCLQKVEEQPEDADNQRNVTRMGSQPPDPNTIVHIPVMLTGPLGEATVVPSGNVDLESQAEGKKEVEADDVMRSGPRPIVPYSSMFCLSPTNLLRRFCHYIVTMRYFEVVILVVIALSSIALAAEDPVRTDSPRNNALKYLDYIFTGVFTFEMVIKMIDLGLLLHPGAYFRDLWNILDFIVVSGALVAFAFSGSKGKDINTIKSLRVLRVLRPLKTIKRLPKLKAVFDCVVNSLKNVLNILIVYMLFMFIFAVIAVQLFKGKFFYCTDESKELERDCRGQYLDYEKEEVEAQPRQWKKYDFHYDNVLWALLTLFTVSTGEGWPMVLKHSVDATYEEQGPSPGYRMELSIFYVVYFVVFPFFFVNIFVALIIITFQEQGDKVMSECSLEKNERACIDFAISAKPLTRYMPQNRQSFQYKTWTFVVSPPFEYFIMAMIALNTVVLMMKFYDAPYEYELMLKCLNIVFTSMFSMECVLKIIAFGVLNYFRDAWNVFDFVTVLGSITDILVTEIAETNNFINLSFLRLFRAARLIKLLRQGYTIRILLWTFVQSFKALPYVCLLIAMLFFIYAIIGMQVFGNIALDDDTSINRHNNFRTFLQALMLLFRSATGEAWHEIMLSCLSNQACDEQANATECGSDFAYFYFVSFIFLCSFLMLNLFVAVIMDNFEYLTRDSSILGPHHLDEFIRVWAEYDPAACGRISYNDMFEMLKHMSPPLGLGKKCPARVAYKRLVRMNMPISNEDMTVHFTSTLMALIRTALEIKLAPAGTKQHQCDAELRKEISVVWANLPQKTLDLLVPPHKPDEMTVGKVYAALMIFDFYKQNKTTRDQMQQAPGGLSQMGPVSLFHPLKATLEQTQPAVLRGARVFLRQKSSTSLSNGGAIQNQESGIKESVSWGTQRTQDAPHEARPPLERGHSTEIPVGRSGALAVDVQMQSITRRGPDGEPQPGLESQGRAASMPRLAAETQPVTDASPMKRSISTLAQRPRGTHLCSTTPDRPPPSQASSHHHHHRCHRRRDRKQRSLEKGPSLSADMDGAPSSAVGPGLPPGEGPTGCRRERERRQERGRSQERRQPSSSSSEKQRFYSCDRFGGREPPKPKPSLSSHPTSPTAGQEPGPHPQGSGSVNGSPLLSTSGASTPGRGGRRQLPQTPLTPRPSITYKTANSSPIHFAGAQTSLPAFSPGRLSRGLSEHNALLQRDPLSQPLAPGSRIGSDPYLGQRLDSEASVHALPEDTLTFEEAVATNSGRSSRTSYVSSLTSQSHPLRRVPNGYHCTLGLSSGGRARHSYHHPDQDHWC

The target in the series is N-type calcium channel (CaV2.2) (Homo sapiens, UniProt Q00975). To be noted: cited from earlier work.

ω-conotoxin GVIA: the “block of N-type calcium current” value is given as “equivalent block of N-type calcium currents”.
